Pooled drug test results. Numbers come from NIAID ChemDB, via PubChem.

All rows: enzyme or target tests; organism: HIV-1; protein: Reverse transcriptase; endpoint: IC50

Conditions beyond the fields shown may differ between rows.

compound | changes | method | strain or isolate | value
O=S(=O)(O)c1ccc2c(OS(=O)(=O)c3cccc4c(S(=O)(=O)Oc5cc(S(=O)(=O)O)cc6cc(S(=O)(=O)O)ccc56)cccc34)cc(S(=O)(=O)O)cc2c1 | - | RT activity | - | <50 µM
O=C1Nc2ccc(F)cc2[C@@]12C[C@@H]2c1ccccc1 | - | RT activity / nucleotide incorporation | - | 7.11 µg/mL
COC(=O)c1ccc(-c2ccc(NC(=O)CSc3nnnn3-c3ccc(C(C)(C)C)cc3Cl)c(Cl)c2)cc1 | - | PicoGreen / fluorescence | WT | <1 µM
COc1ccc2c(c1)N(C(=O)OC(C)C)[C@@H](CSC)C(=S)N2 | - | radiometric | - | 0.014 µM
CC(C)(O)C#Cc1ccc(NC(=O)CSc2nnnn2-c2cc(Cl)c(C3CC3)cc2Cl)c(Cl)c1 | RT-K103 Y181C | PicoGreen / fluorescence | - | <1 µM
C=CS(=O)(=O)N1CCC(NS(=O)(=O)c2c(C(N)=O)[nH]c3ccc(Br)cc23)C1 | Y181C | RT activity / radiometric | BH10 | 18.2 µM
Cc1ccc(-n2nnnc2SCC(=O)Nc2ccc(-c3cocn3)cc2Cl)c(Cl)c1 | - | PicoGreen / fluorescence | WT | <1 µM
Cc1nnc2n1CCN(c1nn3c(C4CC4)nnc3c3ccccc13)C2 | - | RT activity / fluorescence | 98US_MSC5016 | >100 µM
CNC(=O)c1ccc(NC(=O)CSc2nnnn2-c2ccc(C)cc2Cl)c(Cl)c1 | RT-K103 Y181C | PicoGreen / fluorescence | - | <1 µM
O=C(CCCCCCCCC(=O)Nc1cc(S(=O)(=O)O)cc2cc(S(=O)(=O)O)cc(O)c12)Nc1cc(S(=O)(=O)O)cc2cc(S(=O)(=O)O)cc(O)c12 | - | RT activity | - | <50 µM
CC(C)(C#Cc1ccc(NC(=O)CSc2nnnn2-c2ccc(C3CC3)cc2Cl)c(Cl)c1)NC(=O)CN1CCC(O)CC1 | RT-K103 Y181C | PicoGreen / fluorescence | - | <1 µM
Cc1cc(C#N)ccc1Nc1nc(N)n(S(=O)(=O)c2cccc3cc(C#N)ccc23)n1 | Y181C/K103N | luciferase / RT activity | A17 | 290 µM
CC[C@H]1C(=O)Nc2ccc(F)cc2N1C(=O)OC(C)C | - | radiometric | - | 0.04 µM
COc1c2c(c(OC)c3occc13)OC=C(C=O)C2O | - | scintillation proximity / radiometric | - | 17.53 µM
COC(=O)c1ccc(NC(=O)COc2cccnc2-c2cccc3ccccc23)c(Br)c1 | - | RT activity / ELISA / absorbance | - | 43.3 µM
Nc1nc(Nc2ccc(Cl)cc2)nn1S(=O)(=O)c1ccc2ccccc2c1 | - | luciferase / RT activity | IIIB | 9.3 µM
O=C(CCCCCCCCCCC(=O)Nc1ccc(S(=O)(=O)O)c2cccc(S(=O)(=O)O)c12)Nc1ccc(S(=O)(=O)O)c2cccc(S(=O)(=O)O)c12 | - | RT activity | - | <50 µM
Cc1ccc(S(=O)(=O)c2c(C)[nH]c3ccccc23)cc1 | WT | RT activity | - | 84 µM
Nc1nc2c(ncn2[C@H]2CC[C@@H](COP(=O)(O)OP(=O)(O)OP(=O)(O)O)O2)c(=O)[nH]1 | RT-Y181I | nucleotide incorporation | - | 0.05 µM
COc1ccccc1C(=O)Nc1sc2c(c1C(N)=O)CCCCC2 | - | nucleotide incorporation / fluorescence | - | >100 µM
O=C(CCCCCCCCCCC(=O)Nc1ccc(S(=O)(=O)O)c2ccccc12)Nc1ccc(S(=O)(=O)O)c2ccccc12 | - | RT activity | - | >50 µM
CCCCCCCCCCCCCc1cc(O)cc(O)c1 | - | RT activity / nucleotide incorporation | - | >100 µM
N#Cc1cc(Cl)cc(Oc2cc(OCC(=O)c3ccc(Oc4ccc(OCC(=O)O)cc4)cc3)ccc2Cl)c1 | - | RT activity / ELISA / absorbance | - | 0.36 µM
CCN(CC)CC#Cc1ccc(NC(=O)CSc2nnnn2-c2ccc(C(C)(C)C)cc2Cl)c(Cl)c1 | RT-K103 Y181C | PicoGreen / fluorescence | - | <1 µM
COc1ccc2c(c1)CCN(c1nn3c(C4CC4)nnc3c3ccccc13)C2 | - | RT activity / fluorescence | IIIB | 1.07 µM
CC(C)(C)c1ccc(S(=O)(=O)c2c[nH]c3ccccc23)cc1 | K103N | RT activity | - | 37 µM
CC(C)(C)c1ccc(-n2nnnc2SCC(=O)Nc2ccc(C#CCN3CCOCC3)cc2Cl)c(Cl)c1 | - | PicoGreen / fluorescence | WT | <1 µM
Cc1cc(C)cc(S(=O)(=O)c2c(C(=O)NC(C)C(N)=O)[nH]c3ccc(Cl)cc23)c1 | NNRTI-resistant (RT L100I) | RT activity | - | 0.199 µM
CC(C)(C#Cc1ccc(NC(=O)CSc2nnnn2-c2ccc(C3CC3)cc2Cl)c(Cl)c1)OCCN1CCNCC1 | RT-K103 Y181C | PicoGreen / fluorescence | - | <1 µM
Cc1c(S(=O)(=O)c2ccc(C(C)(C)C)cc2)[nH]c2ccccc12 | WT | RT activity | - | 89 µM
CCCCCCCCCCCCCCCc1cccc(O)c1C(=O)O | - | RT activity / RNase H | - | 170.3 µM
O=c1oc(-c2ccc(Cl)cc2)nc2sc3c(c12)CCCCC3 | - | nucleotide incorporation / fluorescence | - | >100 µM
NCCCNC(=O)c1ccc(NC(=O)CSC(=O)N2CCCc3cc(Cl)cc(Cl)c32)c(Cl)c1 | K103N | scintillation proximity | - | 0.002 µM
CN1C(=O)[C@]2(C[C@@H]2c2ccccc2)c2cc(Cl)ccc21 | - | RT activity / nucleotide incorporation | - | 110 µg/mL
Cc1cn([C@H]2C[C@H](N=[N+]=[N-])[C@@H](COP(=S)([S-])OP(=O)(O)C(F)(F)P(=O)(O)O)O2)c(=O)[nH]c1=O | - | fluorescence | - | >0.5 µM
O=S(=O)(c1ccc2ccccc2c1)c1c[nH]c2ccccc12 | WT | RT activity | - | 42 µM
CCCCCC/C=C/CCCCCCCCCc1cccc(O)c1C(=O)O | - | RT activity / RNase H | - | 58.5 µM
Cc1cc(S(N)(=O)=O)ccc1NC(=O)COc1ccccc1C(=O)c1cc(Cl)cc(C#N)c1 | - | fluorescence | WT | 0.0076 µM
Cc1nnc2c3ccccc3c(N3CCc4ncccc4C3)nn12 | - | RT activity / fluorescence | 98US_MSC5016 | 2.01 µM
CC(C)(C#Cc1ccc(NC(=O)CSc2nnnn2-c2cc(C(F)(F)F)ccc2Cl)c(Cl)c1)C(=O)O | RT-K103 Y181C | PicoGreen / fluorescence | - | <1 µM
COCCn1c(=O)nc(-c2ccc(NC(=O)CN(C)C)cc2)c2oc3ccccc3c21 | - | PicoGreen / fluorescence | BH10 | 1.4 µM
CC(C)(C#Cc1ccc(NC(=O)CSc2nnnn2-c2ccc(C3CC3)cc2Cl)c(Cl)c1)NC(=O)c1ccncc1 | RT-K103 Y181C | PicoGreen / fluorescence | - | <1 µM
c1csc(-c2nnc3c4ccccc4c(N4CCc5ccccc5C4)nn23)c1 | - | RT activity / fluorescence | 98US_MSC5016 | >100 µM
C#CC(O)/C=C/C/C=C/C=C/C=C/CC#CC(O)C#CC/C=C/C=C/C=C/CC(O)C#C | - | radiometric | - | 0.95 µM
COc1cc(C#N)cc(C)c1Oc1nc(NC2CCN(c3cccc(C(N)=O)c3)CC2)ncc1C | K103N/Y181C | scintillation proximity | - | 0.011 µM
Cc1cc(C)cc(S(=O)(=O)c2[nH]c3ccccc3c2-c2cccc([N+](=O)[O-])c2)c1 | K103N | RT activity | - | 17 µM
CC(C)(C#Cc1ccc(NC(=O)CSc2nnnn2-c2cc(C(C)(C)C)ccc2Cl)c(Cl)c1)NC(=O)CN1CCNCC1 | - | PicoGreen / fluorescence | WT | <1 µM
Nc1ccc2c(c1)CN(c1nn3c(-c4cccs4)nnc3c3ccccc13)CC2 | - | RT activity / fluorescence | IIIB | 5.18 µM
O=c1oc(-c2ccccc2)nc2sc3c(c12)CCCCC3 | - | nucleotide incorporation / fluorescence | - | 37.1 µM
c1ccc2c(c1)CCN(c1nn3c(C4CC4)nnc3c3ccccc13)C2 | - | RT activity / fluorescence | KER2008 | 0.93 µM
O=C(OCCN1C(=O)c2ccccc2C1=O)c1ccc(Cl)c(Cl)c1 | - | absorbance | - | 2000 µM
Cc1cc(C#N)cc(Cl)c1Oc1nc(NC2CCN(c3cccc(C(N)=O)c3)CC2)ncc1Br | K103N/Y181C | scintillation proximity | - | 0.017 µM
CN(C)CCCC(=O)NC(C)(C)C#Cc1ccc(NC(=O)CSc2nnnn2-c2cc(C(F)(F)F)ccc2Cl)c(Cl)c1 | - | PicoGreen / fluorescence | WT | <1 µM
COc1cccc(-c2nc3sc4c(c3c(=O)o2)CCCCC4)c1 | - | nucleotide incorporation / fluorescence | - | 67.3 µM
COC(C)(C)C#Cc1ccc(NC(=O)CSc2nnnn2-c2ccc(C3CC3)cc2Cl)c(Cl)c1 | - | PicoGreen / fluorescence | WT | <1 µM
Cc1cnc(NC2CCN(c3cccc(C(N)=O)c3)CC2)nc1Oc1c(C)cc(C#N)cc1Cl | K103N/Y181C | scintillation proximity | - | 0.02 µM
CC(C)(C#Cc1ccc(NC(=O)CSc2nnnn2-c2ccc(C3CC3)cc2Cl)c(Cl)c1F)NC(=O)CN1CCNCC1 | - | PicoGreen / fluorescence | WT | <1 µM
Cc1cc(C)cc(S(=O)(=O)c2c(C(=O)NC(C)C(N)=O)[nH]c3ccc(Br)cc23)c1 | WT | RT activity | - | 0.028 µM
NC(=O)c1c(NC(=O)c2ccc(O)c(O)c2)sc2c1CCCCC2 | - | nucleotide incorporation / fluorescence | - | >100 µM
C[C@H](CC(=O)O)C(=O)NC(C)(C)C#Cc1ccc(NC(=O)CSc2nnnn2-c2ccc(C3CC3)cc2Cl)c(Cl)c1 | - | PicoGreen / fluorescence | WT | <1 µM
CCC(C)[C@@H]1N2Cc3c(c4ccccc4n3C(=O)OC(C)(C)C)C1(O)c1c(n(C(=O)OC(C)(C)C)c3ccccc13)C2 | - | radiometric | - | ~8 µM
O=C(CCCCCCC(=O)Nc1ccc(S(=O)(=O)O)c2cccc(S(=O)(=O)O)c12)Nc1ccc(S(=O)(=O)O)c2cccc(S(=O)(=O)O)c12 | - | RT activity | - | >50 µM
COC(=O)/C=C/c1ccc(NC(=O)CSc2nnnn2-c2ccc(C)cc2Cl)c(Cl)c1 | - | PicoGreen / fluorescence | WT | <1 µM
Nc1ccc(S(=O)(=O)O)c2cccc(S(=O)(=O)O)c12 | - | RT activity | - | >50 µM
Cc1ccc(-n2nnnc2SCC(=O)Nc2ccc(-c3ccc(C(=O)O)cc3)cc2Cl)c(Cl)c1 | - | PicoGreen / fluorescence | WT | <1 µM
Nc1sc2c(c1C(=O)Nc1ccccn1)CCCCC2 | - | nucleotide incorporation / fluorescence | - | >100 µM
CC(C)(C#Cc1ccc(NC(=O)CSc2nnnn2-c2cc(C(F)(F)F)cc(C3CC3)c2Cl)c(Cl)c1F)NC(=O)c1ccc[n+]([O-])c1 | - | PicoGreen / fluorescence | WT | <1 µM
Nc1nc2c(ncn2[C@H]2CC[C@@H](COP(=O)(O)OP(=O)(O)OP(=O)(O)O)O2)c(=O)[nH]1 | - | radiometric | - | 0.42 µM
CC(C)(C#Cc1ccc(NC(=O)CSc2nnnn2-c2ccc(C(C)(C)C)cc2Cl)c(Cl)c1)OCC(=O)NNC(N)=O | RT-K103 Y181C | PicoGreen / fluorescence | - | <1 µM
Cc1ccc(NC(=O)COc2cccnc2-c2cccc3ccccc23)c([N+](=O)[O-])c1 | - | RT activity / ELISA / absorbance | - | 38.3 µM
CC(C)(C)c1cc(Cl)c(-n2nnnc2SCC(=O)Nc2ccc(-c3ccc(OCC(=O)O)cc3)cc2Cl)c(Cl)c1 | - | PicoGreen / fluorescence | WT | <1 µM
CCOCn1c(Cc2ccccc2)c(C(C)C)c(=O)[nH]c1=O | RT-W229Y | radiometric | - | 1.03 µM

A second listing of 8 rows from above:

compound | changes | method | strain or isolate | value
C[C@H](CC(=O)O)C(=O)NC(C)(C)C#Cc1ccc(NC(=O)CSc2nnnn2-c2ccc(C3CC3)cc2Cl)c(Cl)c1 | - | PicoGreen / fluorescence | WT | <1 µM
O=C(CCCCCCCCCCC(=O)Nc1ccc(S(=O)(=O)O)c2ccccc12)Nc1ccc(S(=O)(=O)O)c2ccccc12 | - | RT activity | - | >50 µM
COC(=O)c1ccc(-c2ccc(NC(=O)CSc3nnnn3-c3ccc(C(C)(C)C)cc3Cl)c(Cl)c2)cc1 | - | PicoGreen / fluorescence | WT | <1 µM
CC(C)(C)c1ccc(-n2nnnc2SCC(=O)Nc2ccc(C#CCN3CCOCC3)cc2Cl)c(Cl)c1 | - | PicoGreen / fluorescence | WT | <1 µM
CC(C)(C#Cc1ccc(NC(=O)CSc2nnnn2-c2ccc(C(C)(C)C)cc2Cl)c(Cl)c1)OCC(=O)NNC(N)=O | RT-K103 Y181C | PicoGreen / fluorescence | - | <1 µM
O=C1Nc2ccc(F)cc2[C@@]12C[C@@H]2c1ccccc1 | - | RT activity / nucleotide incorporation | - | 7.11 µg/mL
COC(=O)/C=C/c1ccc(NC(=O)CSc2nnnn2-c2ccc(C)cc2Cl)c(Cl)c1 | - | PicoGreen / fluorescence | WT | <1 µM
CC[C@H]1C(=O)Nc2ccc(F)cc2N1C(=O)OC(C)C | - | radiometric | - | 0.04 µM

ICn: concentration for n% inhibition. An empty or dashed field is not shown.